Measured values from several laboratories, pooled; numbers as filed in NIAID ChemDB.

CCn is the concentration with n% toxicity to the cells.

smiles | organism | dose | strain | test | measure | conditions | cell line | read by | result
CNP1(NC)=NP(Cl)(Cl)=NP(Cl)(Cl)=N1 | Mycobacterium tuberculosis | - | H37Rv | culture | MIC | - | - | BACTEC | ≥128 µg/mL
Cc1cn([C@H]2C[C@H](F)[C@@H](COP(=O)(O)C(F)F)O2)c(=O)[nH]c1=O | - | - | - | toxicity | CC50 | - | H9 | trypan blue | >100 µM
CN(C)CCCOc1ccccc1.O=[N+]([O-])c1cc([N+](=O)[O-])c(O)c([N+](=O)[O-])c1 | Mycobacterium tuberculosis | - | H37Rv | culture | MIC | - | - | - | >100 µg/mL
O=[N+]([O-])c1cccc2c1no[n+]2[O-] | - | - | - | toxicity | CC50 | - | VERO | - | 0.42 µg/mL
O=[N+]([O-])c1cn(CC(O)CCl)c([N+](=O)[O-])n1 | Mycobacterium tuberculosis | - | H37Rv | culture | MIC | - | - | - | 0.97 µg/mL
O=c1c2ccccc2c(=O)n2n1P(Cl)CP2Cl | Mycobacterium tuberculosis | 12.5 µg/mL | H37Rv | culture | inhibition | - | - | BACTEC | 0%
[N-]=[N+]=NC(N)=O | Mycobacterium tuberculosis | - | H37Rv | culture | MIC | - | - | - | >100 µg/mL
O=[N+]([O-])c1cc2nc(Cl)[nH]c2cc1[N+](=O)[O-] | Mycobacterium tuberculosis | - | H37Rv | culture | MIC bound | - | - | resazurin | >6.25 µg/mL
O=[N+]([O-])c1ccc(-n2cc([N+](=O)[O-])cn2)c([N+](=O)[O-])c1 | - | - | - | toxicity | CC50 | - | VERO | - | 0.4 µg/mL
Cc1ccc([N+](=O)[O-])cc1NC(=O)NNc1c([N+](=O)[O-])cc(C(F)(F)F)cc1[N+](=O)[O-] | Mycobacterium tuberculosis | 12.5 µg/mL | H37Rv | culture | inhibition | - | - | BACTEC | 99%
Cc1cn([C@H]2C[C@H](F)[C@@H](COP(=O)(O)CF)O2)c(=O)[nH]c1=O | HIV-1 | - | - | culture | EC50 | - | H9 | p24 | 55 µM
O=[As]([O-])(O)c1ccc([O-])cc1.[Na+].[Na+] | Mycobacterium tuberculosis | - | H37Rv | culture | MIC | - | - | - | >100 µg/mL
Cc1cn([C@H]2C=C[C@@H](COP(=O)(O)F)O2)c(=O)[nH]c1=O | HIV-1 | - | - | culture | EC50 | - | PBMC | p24 | 0.05 µM
CN1C(=O)N(C)P12(Cl)N(C)C(=O)N2C | Mycobacterium tuberculosis | - | H37Rv | culture | MIC | - | - | BACTEC | ≥12.5 µg/mL
O=[N+]([O-])c1ccc(Cn2nnc(-c3cc([N+](=O)[O-])cc([N+](=O)[O-])c3)n2)cc1 | Mycobacterium kansasii | - | 6509/96 | culture | MIC | 14 d | - | - | 4 µM
Cc1cn([C@H]2CC[C@@H](CO)O2)c(=O)[nH]c1=O | HIV-1 | - | - | culture | EC50 | - | MT-4 | p24 | 1.88 µM
Nc1ccc([As](=O)(O)O)c(O)c1 | Mycobacterium tuberculosis | - | H37Rv | culture | MIC | - | - | - | >100 µg/mL
S=P1(Oc2ccccc2)NNP2(=NP(Cl)(Cl)=NP(Cl)(Cl)=N2)NN1 | Mycobacterium tuberculosis | - | H37Rv | culture | MIC | - | - | BACTEC | 64 µg/mL
Cc1c([N+](=O)[O-])cc([N+](=O)[O-])c2oc3ccc([N+](=O)[O-])cc3c(=O)c12 | Mycobacterium tuberculosis | - | H37Rv | culture | MIC | - | - | - | 3 µg/mL
ClP1(Cl)=NP(Cl)(Cl)=NP(Cl)(Cl)=N1 | Mycobacterium tuberculosis | - | H37Rv | culture | MIC | - | - | BACTEC | ≥128 µg/mL
CC1=NO[C@@]2(CC[C@H](C)N3C[C@H]2n2cc(C(=O)NCc4ccc(F)cc4F)c(=O)c(OC(=O)N4CCOC[C@H]4COP(=O)(O)O)c2C3=O)C1 | - | - | - | toxicity | CC50 | - | MT-4 | luminescence | 50 µM
Cc1cn([C@H]2C=C[C@@H](CO)O2)c(=O)[nH]c1=O | HIV-1 | - | - | culture | EC50 | - | PBMC | p24 | 0.05 µM
C(/C=C/c1ccccc1)=NCCNCCN=C/C=C/c1ccccc1.[N-]=[N+]=[N][Hg][N]=[N+]=[N-] | Aspergillus niger | 20000 µg/mL | - | culture | zone | - | - | agar diffusion | 36 mm
Cc1cn(C2CC(OP(=O)(O)OCC3OC(n4cnc5c(=O)[nH]c(N)nc54)CC3OP(=O)(O)OCC3OC(n4cnc5c(=O)[nH]c(N)nc54)CC3OP(C)(=O)OCC3OC(n4cnc5c(=O)[nH]c(N)nc54)CC3OP(C)(=O)OCC3OC(n4cnc5c(N)ncnc54)CC3OP(C)(=O)OCC3OC(n4cnc5c(=O)[nH]c(N)nc54)CC3O)C(COCc3ccc(OCc4ccccc4)c(OCc4ccccc4)c3)O2)c(=O)[nH]c1=O | - | - | - | toxicity | CC50 | - | MT-4 | - | >50 µg/mL
CN(C)c1ccc([As](=O)(O)O)cc1 | Mycobacterium tuberculosis | - | H37Rv | culture | MIC | - | - | - | >100 µg/mL
COc1ccc2c3c1OC1C4(OC)CCC5(CC4C(C)=O)C(C2)N(C)CCC315.Cl | Mycobacterium tuberculosis | - | H37Rv | culture | MIC bound | - | - | BACTEC | >12.5 µg/mL
CCCC[As](=O)(O)CCCC | Mycobacterium tuberculosis | - | H37Rv | culture | MIC | - | - | - | >100 µg/mL
Cc1cn([C@H]2C[C@H](N=[N+]=[N-])[C@@H](COP(=O)(O)F)O2)c(=O)[nH]c1=O | HIV-1 | - | IIIB | culture | EC50 | - | MT-4 | - | 0.022 µM
CCN(CC)P1OCC(C)O1 | Mycobacterium tuberculosis | 6.25 µg/mL | H37Rv | culture | inhibition | - | - | resazurin | 4%
Cc1cn([C@H]2C[C@H](F)[C@@H](CO)O2)c(=O)[nH]c1=O | HIV-1 | - | - | culture | EC50 | - | H9 | RT activity | <0.1 µM
N#Cc1c(SCCBr)nsc1-c1ccccc1 | - | - | - | toxicity | CC50 | - | HEP-2 | - | 25 µg/mL

A second listing of 4 rows from above:

smiles,organism,dose,strain,test,measure,conditions,cell line,read by,result
Nc1ccc([As](=O)(O)O)c(O)c1,Mycobacterium tuberculosis,-,H37Rv,culture,MIC,-,-,-,>100 µg/mL
C(/C=C/c1ccccc1)=NCCNCCN=C/C=C/c1ccccc1.[N-]=[N+]=[N][Hg][N]=[N+]=[N-],Aspergillus niger,20000 µg/mL,-,culture,zone,-,-,agar diffusion,36 mm
O=[N+]([O-])c1cccc2c1no[n+]2[O-],-,-,-,toxicity,CC50,-,VERO,-,0.42 µg/mL
O=[N+]([O-])c1ccc(Cn2nnc(-c3cc([N+](=O)[O-])cc([N+](=O)[O-])c3)n2)cc1,Mycobacterium kansasii,-,6509/96,culture,MIC,14 d,-,-,4 µM

ECn: concentration that inhibits the pathogen or its effect by n%. MIC bound comes from a single tested concentration. Zone: diameter of growth inhibition. Neighbouring rows are from separate reports. Percent inhibition refers to the dose given; in toxicity tests it is the harm to the cells. An empty or dashed field is not shown.